Source: PMC8000395, “Effective Small Molecule Antibacterials from a Novel Anti-Protein Secretion Screen” (Microorganisms, 2021)

These compounds were tested on Entheropathogenic E. coli O127:H6 strain E2348/69 (assay: Antimicrobial activity test (growth, OD600)). Details: Escherichia coli, read-out: Bacterial Viability (IC50).
Type: cell-based

| Compound | IC50 [µM] |
| --- | --- |
| O=C(/C=C/c1csnn1)c1ccccc1Cl [HSI#01] | > 100 |
| O=C(/C=C/c1csnn1)c1cc(Cl)ccc1Cl [HSI#05] | > 100 |
| O=C(/C=C/c1csnn1)c1cccc2ccccc12 [HSI#10] | > 100 |
